Drawing on publication PMC7948407 (2020), this text covers Kd for one substance.

This test addresses SAT C-terminal C10 peptide C-terminal 10 residues (Mycobacterium tuberculosis) (UniProt P95231).

Broadly, the Kd is the constant that tells how readily two partners part at equilibrium. A high value points to a looser complex. Take “Cysteine synthase (MtCS) (from UniProt P9WP55)”: the Kd stood at 1 µM.
